Pooled drug test results. Numbers come from NIAID ChemDB, via PubChem.

Common to all: target-level tests; organism: HIV-1; target: Protease; endpoint: IC50

ICn: concentration for n% inhibition. Lines come from different laboratories, so protocols vary. Blank or dashed fields: not listed here.

smiles | mutations | read by | setting | result
CC(C)(CC(=O)O)CC(=O)O[C@H]1CC[C@@]2(C)C(CC[C@]3(C)C2CC=C2C4CC(C)(C)CC[C@]4(C(=O)O)CC[C@]23C)C1(C)C |  | HPLC |  | 3.8 µM
CC(C)c1nc(COC(=O)N[C@H](C(=O)N[C@@H](Cc2ccccc2)[C@H](O)CN2CCN(Cc3ccc4ccccc4n3)C[C@H]2C(=O)NC(C)(C)C)C(C)C)cs1 |  | substrate cleavage |  | <0.0005 µM
CC(C)CN(C[C@@H](O)[C@H](Cc1ccccc1)NC(=O)COc1ccc2ccccc2c1)S(=O)(=O)c1ccc(Br)cc1 |  |  |  | 0.04 µM
CC(C)C[C@H](NC(=O)[C@@H](NC(=O)CCCCCCCCCCCCCCC(=O)N[C@@H](Cc1ccc(N)cc1)C(=O)N[C@@H](Cc1ccccc1)C(=O)O)C(C)O)C(=O)N[C@@H](Cc1ccccc1)C(N)=O |  |  |  | 0.64 µM
CC(=O)NC(=O)[C@H](Cc1c[nH]c2ccccc12)NC(=O)[C@@H](NC(=O)[C@@H]1CCCN1C[C@@H](O)[C@H](Cc1ccccc1)NC(=O)COc1c(C)cccc1C)C(C)C |  | fluorescence |  | 0.0753 µM
COC(=O)[C@]12CCC(C)(C)CC1C1=CCC3[C@@]4(C)CCC(=O)C(C)(C)C4CC[C@@]3(C)[C@]1(C)CC2 |  | HPLC |  | 20 µM
CC(=O)ONc1ccc(S(=O)(=O)N(CC(C)C)C[C@@H](O)[C@H](Cc2ccccc2)NC(=O)c2ccc(-c3ccc(Cl)cc3)o2)cc1 |  |  |  | 0.045 µM
COC(=O)[C@]12CCC(C)(C)CC1C1=CCC3[C@@]4(C)CC[C@H](N)C(C)(C)C4CC[C@@]3(C)[C@]1(C)CC2 |  | HPLC |  | >20 µM
CC(C)c1nc(COC(=O)N[C@H](C(=O)N[C@@H](Cc2ccccc2)[C@H](O)CN2CCN(Cc3ccc4c(c3)OCO4)C[C@H]2C(=O)NC(C)(C)C)C(C)C)cs1 |  | substrate cleavage |  | <0.0005 µM
CC(=O)ONc1ccc(S(=O)(=O)N(CC(C)C)C[C@@H](O)[C@H](Cc2ccccc2)NC(=O)[C@H](C(C)C)N2C(=O)c3ccccc3C2=O)cc1 |  |  |  | 0.016 µM
CC(C)c1nc(CN(C)C(=O)N[C@H](C(=O)N[C@@H](Cc2ccccc2)[C@H](O)CN2CC[C@@H](OCc3cncs3)C[C@H]2C(=O)NC(C)(C)C)C(C)C)cs1 |  | substrate cleavage |  | <0.0005 µM
Cc1ccccc1CNC(=O)[C@H]1N(C(=O)[C@@H](O)[C@H](Cc2ccccc2)NC(=O)CC(C)(C)C(=O)OC[C@@H]2O[C@H](n3cc(C)c(=O)[nH]c3=O)C[C@H]2N=[N+]=[N-])CSC1(C)C |  |  |  | <5 µM
CC(C)CC(=O)N1C[C@@H](O)[C@@H](Cc2ccccc2)N(Cc2ccc(O)cc2)C(=O)N1Cc1ccc(O)cc1 |  | fluorescence | pH 4.5 | <0.0005 µM
CC(C)c1nc(CN(C)C(=O)N[C@H](C(=O)N[C@@H](Cc2ccccc2)[C@H](O)CN(C(C)C)S(=O)(=O)c2ccc(N)cc2)C(C)C)cs1 |  | substrate cleavage |  | <0.0005 µM
CC(=O)ONc1ccc(S(=O)(=O)N(CC(C)C)C[C@@H](O)[C@H](Cc2ccccc2)NC(=O)COc2ccc3ccccc3c2)cc1 |  |  |  | 0.069 µM
CC[C@H](C)[C@H](NC(=O)[C@@H](NC(=O)CCCCCCCCCCCCCCC(=O)N[C@@H](CC(N)=O)C(=O)N[C@@H](Cc1ccccc1)C(=O)O)C(C)O)C(=O)N[C@@H](Cc1ccccc1)C(N)=O | PR-L10I K45R I54V L63P A71V V82T L90M I93L |  |  | ~2.48 µM
CC(C)[C@H](NC(=O)[C@H](Cc1ccccc1)NOC(=O)c1ccccc1)C(=O)N[C@@H](Cc1ccccc1)[C@@H](O)[C@H](O)[C@H](Cc1ccccc1)NC(=O)[C@@H](NC(=O)[C@H](Cc1ccccc1)NOC(=O)c1ccccc1)C(C)C |  |  |  | 0.01 µM
CC(C)(CO)OC(=O)N[C@@H](Cc1ccccc1)[C@H](O)CNC[C@@H](O)[C@H](Cc1ccccc1)NC(=O)C1(O)CCCC1(C)C |  | HPLC | pH 5.5 | <10 µM
COC(=O)CCCCC(=O)O[C@H]1CC[C@@]2(C)C(CC[C@]3(C)C2CC=C2C4CC(C)(C)CC[C@]4(C(=O)OC)CC[C@]23C)C1(C)C |  | HPLC |  | >20 µM
CC(C)(C)OC(=O)N[C@@H](Cc1ccccc1)[C@H](O)CNC[C@@H](O)[C@H](Cc1ccccc1)NC(=O)O[C@H]1CCc2ccccc21 |  | HPLC | pH 5.5 | <10 µM
Cc1cn([C@H]2C[C@H](N=[N+]=[N-])[C@@H](COC(=O)CCC(=O)N[C@@H](Cc3ccccc3)[C@H](O)C(=O)N3CSC[C@H]3C(=O)NC(C)(C)C)O2)c(=O)[nH]c1=O |  |  |  | >5 µM
CC(C)C[C@H](NC(=O)[C@@H](NC(=O)CCCCCCCCCCCCCCC(=O)N[C@@H](CC(N)=O)C(=O)N[C@@H](Cc1ccccc1)C(=O)O)C(C)O)C(=O)N[C@@H](Cc1ccc(N)cc1)C(N)=O |  |  |  | 1.64 µM
CON[C@H](C(=O)NC(=O)[C@@H]1CSCN1C(=O)[C@@H](O)[C@H](Cc1ccccc1)NC(=O)[C@@H](NC(=O)[C@H](Cc1c[nH]c2ccccc12)NC(C)=O)C(C)C)C(C)C |  |  |  | 0.012 µM
CC(C)(C)OC(=O)N[C@@H](Cc1ccccc1)C(=O)CN(Cc1ccccc1)CC(O)[C@H](Cc1ccccc1)NC(=O)OC(C)(C)C |  | HPLC | pH 5.5 | >10 µM
CC1(C)CC2C3=CCC4[C@@]5(C)CC[C@H](OC(=O)CCCCC(=O)O)C(C)(C)C5CC[C@@]4(C)[C@]3(C)CC[C@@]2(C)[C@H](OC(=O)CCCCC(=O)O)C1 |  | HPLC |  | 2.3 µM
Cc1ccccc1CNC(=O)[C@@H]1CSCN1C(=O)[C@@H](O)[C@H](Cc1ccccc1)NC(=O)CC(C)(C)C(=O)O |  |  |  | <5 µM
CC1(C)CC[C@]2(C(=O)O)CC[C@]3(C)C(=CCC4[C@@]5(C)CC[C@H](OC(=O)CCCCCCCCC(=O)O)C(C)(C)C5CC[C@]43C)C2C1 |  | HPLC |  | 4 µM
CC(C)c1nc(COC(=O)N[C@H](C(=O)N[C@@H](Cc2ccccc2)[C@H](O)CN2CCN(Cc3cncs3)C[C@H]2C(=O)NC(C)(C)C)C(C)C)cs1 |  | substrate cleavage |  | <0.0005 µM
CC(=O)ONc1ccc(S(=O)(=O)N(CC(C)C)C[C@@H](O)[C@H](Cc2ccccc2)NC(=O)CCN2C(=O)c3ccccc3C2=O)cc1 |  |  |  | 0.025 µM
CON[C@H](C(=O)NC(=O)[C@H]1N(C(=O)[C@H](O)[C@H](Cc2ccccc2)NC(=O)[C@@H](NC(=O)[C@H](C)NC(=O)Oc2ccccc2)C(C)C)CSC1(C)C)C(C)C |  |  |  | 0.475 µM
Cc1ccccc1CNC(=O)[C@@H]1CSCN1C(=O)[C@@H](O)[C@H](Cc1ccccc1)NC(=O)CC(C)(C)C(=O)OC[C@@H]1O[C@H](n2cc(C)c(=O)[nH]c2=O)C[C@H]1N=[N+]=[N-] |  |  |  | >5 µM
CC(C)C[C@H](NC(=O)CCCCCCCCCCCCCCC(=O)N[C@H](C(=O)N[C@@H](CC(C)C)C(=O)N[C@@H](Cc1ccccc1)C(N)=O)C(C)O)C(=O)N[C@@H](Cc1ccccc1)C(=O)O |  |  |  | 1.47 µM
CON[C@H](C(=O)NC(=O)[C@H]1N(C(=O)[C@@H](O)[C@H](Cc2ccccc2)NC(=O)[C@@H](NC(=O)[C@H](Cc2ccccc2)NC(C)=O)C(C)C)CSC1(C)C)C(C)C |  |  |  | 0.008 µM
COc1cc(CN2CCN(C[C@@H](O)[C@H](Cc3ccccc3)NC(=O)[C@@H](NC(=O)N(C)Cc3csc(C(C)C)n3)C(C)C)[C@H](C(=O)NC(C)(C)C)C2)ccc1O |  | substrate cleavage |  | <0.0005 µM
CNN[C@H](C(=O)NC(=O)[C@H]1N(C(=O)[C@@H](O)[C@H](Cc2ccccc2)NC(=O)[C@@H](NC(=O)[C@H](Cc2c[nH]c3ccccc23)NC(C)=O)C(C)C)CSC1(C)C)C(C)C |  |  |  | 0.015 µM
COc1cc(CN2C(=O)N(Cc3ccc(O)c(OC)c3)N(C(=O)CCCc3ccccc3)C[C@@H](O)[C@H]2Cc2ccccc2)ccc1O |  | fluorescence |  | <0.0005 µM
COc1ccc(C[C@H](C[C@H](O)[C@H](Cc2ccccc2)NC(=O)OC(C)(C)C)C(=O)N[C@H](C(=O)N[C@@H](Cc2ccccc2)C(=O)N2CCOCC2)C(C)C)cc1 |  | fluorescence |  | 0.011 µM
CC(=O)N[C@@H](Cc1c[nH]c2ccccc12)C(=O)N[C@H](C(=O)N[C@@H](Cc1ccccc1)[C@H](O)[C@@H](O)[C@H](Cc1ccccc1)NC(=O)[C@@H](NC(=O)[C@H](Cc1c[nH]c2ccccc12)NC(C)=O)C(C)C)C(C)C |  |  |  | 0.012 µM
COc1cc(CN2C(=O)N(Cc3ccc(O)c(OC)c3)N(C(=O)CCCC3CCCO3)C[C@@H](O)[C@H]2Cc2ccccc2)ccc1O |  | fluorescence |  | <0.0005 µM
CC1(C)CC[C@]2(C(=O)O)CC[C@]3(C)C(=CCC4[C@@]5(C)CC[C@H](NC(=O)CCCCC(=O)N[C@H]6CC[C@@]7(C)C(CC[C@]8(C)C7CC=C7C9CC(C)(C)CC[C@]9(C(=O)O)CC[C@]78C)C6(C)C)C(C)(C)C5CC[C@]43C)C2C1 |  | HPLC |  | 3.3 µM
CC[C@H](C)[C@H](NC(=O)[C@@H]1CCCN1C[C@@H](O)[C@H](Cc1ccccc1)NC(=O)[C@H](CC(N)=O)NC(=O)[C@H](CC(C)C)NC(=O)[C@H](CO)NC(C)=O)C(=O)N[C@H](C(=O)NC(C)=O)C(C)C |  | fluorescence |  | 0.00061 µM
CC(C)[C@H](NC(=O)[C@H](C)N)C(=O)N[C@@H](Cc1ccccc1)[C@H](O)CNC[C@@H](O)[C@H](Cc1ccccc1)NC(=O)OC(C)(C)C |  | HPLC | pH 5.5 | <10 µM
CC(=O)ONc1ccc(S(=O)(=O)N(CC(C)C)C[C@@H](O)[C@H](Cc2ccccc2)NC(=O)CCc2c[nH]c3ccccc23)cc1 |  |  |  | 0.032 µM
COc1cc(CN2C(=O)N(Cc3ccc(O)c(OC)c3)N(C(=O)CC(C)C)C[C@@H](O)[C@H]2Cc2ccccc2)ccc1O |  | fluorescence |  | <0.0005 µM
CC(O)[C@H](NC(=O)CCCCCCCCCCCCCCC(=O)N[C@@H](CC(N)=O)C(=O)N[C@@H](Cc1ccccc1)C(=O)O)C(=O)N[C@@H](CC(N)=O)C(=O)N[C@@H](Cc1ccccc1)C(N)=O |  |  |  | >5.5 µM

Repeating the final 3 entries:

CC(=O)ONc1ccc(S(=O)(=O)N(CC(C)C)C[C@@H](O)[C@H](Cc2ccccc2)NC(=O)CCc2c[nH]c3ccccc23)cc1 ; result: 0.032 µM
COc1cc(CN2C(=O)N(Cc3ccc(O)c(OC)c3)N(C(=O)CC(C)C)C[C@@H](O)[C@H]2Cc2ccccc2)ccc1O ; read by: fluorescence ; result: <0.0005 µM
CC(O)[C@H](NC(=O)CCCCCCCCCCCCCCC(=O)N[C@@H](CC(N)=O)C(=O)N[C@@H](Cc1ccccc1)C(=O)O)C(=O)N[C@@H](CC(N)=O)C(=O)N[C@@H](Cc1ccccc1)C(N)=O ; result: >5.5 µM